For at least one entry, the source does not settle the construct or the ends of the probe.
Target: PA3699 (Pseudomonas aeruginosa PAO1) (UniProt Q9HXU1)
Assay: EMSA
Details: EMSA: 20 mM Tris-HCl pH 8.0, 2 mM EDTA, 5 mM MgCl2, 30 mM KCl, 5% glycerol, 0.025% NP-40, 30 ug/ml poly(dI):(dC), 0.2 nM probe, 15 min at 22 C; recombinant protein; protein details: N-terminal 6xHis (pET-28b) cleaved with thrombin; label: 32P (dATP fill-in with Klenow); probe letters rebuilt from the primers and the genome; part of a longer molecule

CGGTCGCACGCGTGGCGATGGGCCGACAGTGAACCCGGGGACCAGGTGTGACTGGGTATTCAGTTCGCATAAAATGTGATCTAGATCACATTTAAACGTTTGCTTACCCTCTAGGACGGGTATCGTACTAGGTGCATCAAACGCTGCGGTCTATTGTTAAGTGGGACTGAAATGTGCCTTTCCGGCACAACGCCAACTCTATAGAGTGGG (double strand) [PlasRp EMSA probe]
binding result: binds

Source: publication PMC3702619
